Measured values from several laboratories, pooled; numbers as filed in NIAID ChemDB.

Shared fields: tests in culture; species: Candida albicans

ECn is the concentration giving n% inhibition of infection, replication or growth. Neighbouring rows are from separate reports. An empty or dashed field is not shown. MIC50, MIC90 and the like: level of inhibition, or share of isolates inhibited.

smiles | read by | endpoint | setting | strain | changes | result
C[C@@H]1[C@H](O)[C@@H](C)/C=C/C=C/CC/C=C/C=C/C=C/C=C/C(O[C@H]2O[C@H](C)[C@@H](O)[C@H](N)[C@@H]2O)CC2O[C@](O)(CC(O)C(O)CCC(O)CC(O)CC(O)CC(=O)O[C@H]1C)CC(O)C2C(=O)O |  | MIC |  | MTCC 227 |  | 100 µg/mL
CCCCCCCCCNC1CCc2cccc(OC)c2C1 |  | MIC |  |  |  | 0.25 µM
O=C(CN1CCN(C(c2ccccc2)c2ccc(Cl)cc2)CC1)Cn1ccnc1-c1ccccc1 | broth dilution | MIC |  | ATCC 76615 |  | 12.5 µg/mL
CCCCCCCCCCNC1CCc2cc(OC)ccc2C1 |  | MIC |  |  |  | 0.03125 µM
COc1cccc(C[N+]2=C(c3ccc(F)cc3F)c3cc4c(cc3CC2)OCO4)c1OC.[Br-] | broth dilution | MIC80 |  | Clinical isolate | Fluconazole-resistant | >64 µg/mL
CC(Cc1ccc(C(C)(C)C)cc1)CN1CC(C)OC(C)C1 |  | MIC |  | YAG237 (genotype CNB1-1/CNB1) |  | 3.12 µg/mL
CCCCCCCCCCCCNC1CCc2cc(OC)ccc2C1 |  | MIC |  |  |  | 8 µM
CC(C)=CCC/C(C)=C/CC/C(C)=C/CCCOS(=O)(=O)c1ccc(C)cc1 |  | EC50 |  | CCH442 |  | >20 µM
COc1ccc2nc(N3CCOCC3)c(/C=C(/C#N)c3nc4ccccc4[nH]3)cc2c1 | broth dilution | MIC |  | MTCC 227 |  | 1000 µg/mL
COc1ccc2nc(Oc3ccc(C)cc3)c(C3C(C#N)=C(N)OC4=C3C(=O)CCC4)cc2c1 |  | MIC |  | MTCC 227 |  | 1000 µg/mL
C[C@@H]1[C@H](O)[C@@H](C)/C=C/C=C/CC/C=C/C=C/C=C/C=C/C(O[C@H]2O[C@H](C)[C@@H](O)[C@H](N)[C@@H]2O)CC2O[C@](O)(CC(O)C(O)CCC(O)CC(O)CC(O)CC(=O)O[C@H]1C)CC(O)C2C(=O)O | visual reading | MIC |  | ATCC 10231 |  | 20 µg/mL
COc1ccc2c(c1)CCC(NCc1ccccc1)C2 |  | MIC |  |  |  | 32 µM
C[C@@H]1[C@H](O)[C@@H](C)/C=C/C=C/C=C/C=C/C=C/C=C/C=C/[C@H](OC2O[C@@H](C)[C@H](O)[C@@H](N)[C@H]2O)C[C@@H]2OC(O)(C[C@@H](O)C[C@@H](O)[C@H](O)CC[C@@H](O)C[C@@H](O)CC(=O)C[C@H]1C)C[C@H](O)[C@H]2C(=O)O |  | MIC |  | MTCC 183 |  | 300 µg/mL
C[C@H](Cc1ccc(O)c(O)c1)[C@@H](C)Cc1ccc(O)c(O)c1 | broth dilution | MIC80 |  | ATCC 10231 |  | 250 µg/mL
Brc1cc(Br)c2ncnc(NCCNc3nc(NC4CC4)nc(N4CCN(Cc5ccccc5)CC4)n3)c2c1 | agar | MIC |  | MTCC 183 |  | 100 µg/mL
CCCCCCCCCCCCNC1CCc2cccc(OC)c2C1 |  | MIC |  |  |  | 2 µM
O=[N+]([O-])c1cc(CSc2nnnn2Cc2ccccc2)cc([N+](=O)[O-])c1 | broth dilution | EC80 | 48 h | ATCC 44859 |  | >500 µM
CCC(C)CC(C)CCCCCCCCC(=O)N[C@H]1C[C@@H](O)[C@@H](OCCN)NC(=O)[C@@H]2C[C@@H](O)CN2C(=O)[C@H]([C@H](O)CCN)NC(=O)[C@H]([C@H](O)[C@@H](O)c2ccc(O)cc2)NC(=O)[C@@H]2C[C@@H](O)CN2C(=O)[C@H]([C@@H](C)O)NC1=O |  | EC50 |  | MY1055 |  | 20 µg/mL
N#C/C(=C/c1cc2ccccc2nc1N1CCOCC1)c1nc2ccccc2[nH]1 | broth dilution | MIC |  | MTCC 227 |  | 1000 µg/mL
C[C@H]1[C@H](O)[C@@H](C)/C=C/C=C/C=C/C=C/C=C/C=C/C=C/[C@H](O[C@@H]2O[C@H](C)[C@@H](O)[C@H](N)[C@@H]2O)C[C@@H]2O[C@](O)(C[C@@H](O)C[C@@H](O)CC[C@H](O)[C@@H](O)C[C@@H](O)CC(=O)O[C@H]1C)C[C@H](O)[C@H]2C(=O)O |  | MIC |  | MY1055 |  | 0.3 µg/mL
Clc1ccc(COC(Cn2ccnc2)c2ccc(Cl)cc2Cl)c(Cl)c1 | broth dilution | MFC100 |  | ICB 12 |  | 32 µg/mL
C[C@H](COc1ccc(/C=C2\SC(=S)N(CC(=O)O)C2=O)cc1O[C@H](c1ccccc1)C(F)(F)F)c1ccccc1 |  | EC50 |  | G418-sensitive |  | 0.015 µM
CC(C)C(=O)CCCNC(=S)Nc1ccc([N+](=O)[O-])cc1 |  | MIC |  | ATCC2094 |  | 12 µg/mL
C/C=C/C(=O)Oc1cccc2cccnc12 |  | MIC |  |  |  | 25 µg/mL
CCOC(=O)CCNC(=S)Nc1ccc(OC)c(OC)c1 |  | MIC |  | ATCC2094 |  | 101 µg/mL
Cc1c(N)nc([C@H](CC(N)=O)NC[C@H](N)C(N)=O)nc1C(=O)N[C@H](C(=O)N[C@H](C)[C@@H](O)[C@H](C)C(=O)N[C@H](C(=O)NCCc1nc(-c2nc(C(=O)NCCC[S+](C)C)cs2)cs1)[C@@H](C)O)C(O[C@@H]1O[C@@H](CO)[C@@H](O)[C@H](O)[C@@H]1O[C@H]1O[C@H](CO)[C@@H](O)[C@H](OC(N)=O)[C@@H]1O)c1cnc[nH]1 |  | MLC |  | Isolate 94-101 |  | 12.5 µg/mL
C=C(Cl)/C=C/[C@H](O)CC(=C)C[C@H]1OC2[C@@H](O)[C@]3(O)C[C@@H](O)[C@H](C)[C@H](CCC/C=C\[C@@H]4C[C@@H](O)C[C@]5(C[C@H](OC)CC(CC(=O)[C@@H](C)[C@H](OC(C)=O)[C@@H](C)C(=C)C[C@@H]6C[C@@](C)(O)C[C@]7(C[C@H](OC(C)=O)CC(CC(=O)O[C@@H]([C@@H]1O)[C@H]2C)O7)O6)O5)O4)O3 |  | MIC |  | ATCC 60193 |  | 3.13 µg/mL
COC(=O)CCNC(=S)NC1COOc2ccccc21 |  | MIC |  | ATCC2094 |  | >128 µg/mL
c1ccc(COc2cccc3cccnc23)cc1 |  | MIC |  |  |  | 75 µg/mL
COc1ccc2c(c1OC)C[N+]1(Cc3ccccc3[N+](=O)[O-])CCc3cc4c(cc3C1C2)OCO4.[Br-] | broth dilution | MIC80 |  | Clinical isolate | Fluconazole-resistant | >64 µg/mL
C[C@@H]([C@H](N)C(=O)N[C@H](C(=O)O)[C@H]1O[C@@H](n2ccc(=O)[nH]c2=O)[C@H](O)[C@@H]1O)[C@H](O)c1ccc(O)cn1 |  | EC50 |  | MY1055 |  | >50 µg/mL
CC(=O)N1CCN(c2ccc(OC[C@H]3CO[C@](Cn4ccnc4)(c4ccc(Cl)cc4Cl)O3)cc2)CC1 |  | MIC |  | Isogenic isolate 8 (25X) |  | ≤0.008 µg/mL
CC(C)N1CCN(c2nc(Cl)nc(NC3CC3)n2)CC1 | agar | MIC |  | MTCC 183 |  | 200 µg/mL
O=[N+]([O-])c1cc(CSc2nnnn2C2CCCCC2)cc([N+](=O)[O-])c1 | broth dilution | EC80 | 24 h | ATCC 44859 |  | >500 µM
CCCCCCCCCNC1CCc2ccc(O)cc2C1 |  | MIC |  |  |  | 0.0625 µM
Clc1ccc(C(c2ccccc2)N2CCN(Cc3nc4ccccc4[nH]3)CC2)cc1 | broth dilution | MIC |  | ATCC 76615 |  | 25 µg/mL
Cc1ccc(Oc2nc3ccc(C)cc3cc2C2C(C#N)=C(N)OC3=C2C(=O)CC(C)(C)C3)cc1 |  | MIC |  | MTCC 227 |  | 1000 µg/mL
Oc1ccc2c(c1)CCC(Nc1ccc(Cl)cc1)C2 |  | MIC |  |  |  | 2 µM
O=[N+]([O-])c1cc(C[Se]c2nnnn2C2CCCCC2)cc([N+](=O)[O-])c1 | broth dilution | EC80 | 24 h | ATCC 44859 |  | >500 µM
Brc1cc(Br)c2ncnc(NCCNc3nc(NC4CC4)nc(N4CCN(c5ccccc5)CC4)n3)c2c1 | agar | MIC |  | MTCC 183 |  | 100 µg/mL
CC(=O)CCCNC(=S)Nc1ccc([N+](=O)[O-])cc1 |  | MIC |  | ATCC2094 |  | 11 µg/mL
OC(CN1CCN(C(c2ccccc2)c2ccc(Cl)cc2)CC1)Cn1cncn1 | broth dilution | MIC |  | ATCC 76615 |  | 100 µg/mL
CC(C)=CCC/C(C)=C/CCC(C)=CCCC[n+]1ccccc1 |  | EC50 |  | CCH442 |  | >50 µM
O=[N+]([O-])c1cc(CSc2nnnn2-c2ccc(Cl)c(Cl)c2)cc([N+](=O)[O-])c1 | broth dilution | EC80 | 48 h | ATCC 44859 |  | >125 µM
CCOc1cccc2ccc[n+](CC)c12.[I-] |  | MIC |  |  |  | >100 µg/mL
O=C(CCc1ccc(O)c(O)c1)OCc1ccc([N+](=O)[O-])o1 | broth dilution | MIC | 4 h, biofilm | ATCC 10231 |  | 256 µg/mL
C[C@@H]1CC[C@@]2(OC1)O[C@H]1[C@@H](O)[C@H]3[C@@H]4CC[C@H]5C[C@@H](O[C@@H]6O[C@H](CO)[C@H](O[C@@H]7O[C@H](CO)[C@@H](O)[C@H](O[C@@H]8OC[C@@H](O)[C@H](O)[C@H]8O)[C@H]7O[C@@H]7O[C@H](CO)[C@H](O)[C@H](O[C@@H]8O[C@H](CO)[C@@H](O)[C@H](O)[C@H]8O)[C@H]7O)[C@H](O)[C@H]6O)[C@H](O)C[C@]5(C)[C@H]4CC[C@]3(C)[C@H]1[C@@H]2C |  | EC50 |  | MY1055 |  | 10 µg/mL
CC1(C)CC(=O)C2=C(C1)OC(N)=C(C#N)C2c1cc2ccccc2nc1Oc1ccc(F)cc1 |  | MIC |  | MTCC 227 |  | 200 µg/mL
Clc1cccc(N2CCN(c3nc(NCCNc4ncnc5c(Br)cc(Br)cc45)nc(NC4CC4)n3)CC2)c1Cl | agar | MIC |  | MTCC 183 |  | 50 µg/mL
C=C(CC[C@@H](C)[C@H]1C[C@@H](O)[C@@]2(C(=O)O)C3=C(CC[C@]12C)[C@@]1(C)CC[C@H](O[C@@H]2O[C@@H](CO)[C@H](OC)[C@@H](O)[C@@H]2O)C(=C)[C@@H]1CC3)C(C)C |  | EC50 |  | MY1055 |  | >40 µg/mL
C=C(C)CN1CC(OCC23C[C@@H]4[C@H](C)CC[C@H]4C4(C=O)CC2C=C(C(C)C)[C@@]34C(O)O)O[C@H](C)[C@@H](O)C1 |  | MIC |  | SANK51486 |  | 0.016 µg/mL
CC(C/C=C/C=C/CC/C=C\C=C\CCC(C)(C)C)C(O)C(O)C(O)C(O)C(O)C1OC(=O)C(O)C1O |  | MIC |  | A9540 |  | 3.1 µg/mL
CC(C)=CCC/C(C)=C/CCC(C)=CCCC[n+]1cccc(C)c1.Cc1ccc(S(=O)(=O)[O-])cc1 |  | EC50 |  | CCH442 |  | 0.61 µM
Clc1nc(NC2CC2)nc(N2CCN(C(c3ccccc3)c3ccccc3)CC2)n1 | agar | MIC |  | MTCC 183 |  | 100 µg/mL
Cc1ccc2nc(Oc3ccc(F)cc3)c(C3C(C#N)=C(N)OC4=C3C(=O)CCC4)cc2c1 |  | MIC |  | MTCC 227 |  | 250 µg/mL
O=[N+]([O-])c1cn(CC(O)CN2CCN(C(c3ccccc3)c3ccc(Cl)cc3)CC2)cn1 | broth dilution | MIC |  | ATCC 76615 |  | 25 µg/mL
Cc1cc(O)c2c(c1)C(=O)C=CC2=O |  | MFC |  |  |  | 20 µg/mL
CC(C)CCCC(C)CCCC(C)CCCC[n+]1ccccc1.Cc1ccc(S(=O)(=O)[O-])cc1 |  | MIC |  | CCH442 |  | 6.4 µM
O=c1[nH]cnc2c1ncn2[C@H]1CC[C@@H](CO)O1 | agar | MIC |  | MTCC 183 |  | 200 µg/mL
O=C(Cc1c[nH]c2ccccc12)NCCc1ccc2c(c1)OCO2 | broth dilution | MIC80 |  | Clinical isolate | Fluconazole-resistant | >64 µg/mL
COc1ccc(Oc2nc3ccccc3cc2C2C(C#N)=C(N)OC3=C2C(=O)CC(C)(C)C3)cc1 |  | MIC |  | MTCC 227 |  | 100 µg/mL
NC(=NCCCCCCN=C(N)/N=C(\N)Nc1ccc(Cl)cc1)/N=C(\N)Nc1ccc(Cl)cc1 |  | MIC |  |  |  | 55 µM
COc1ccc2nc(N3CCOCC3)c(CC(C#N)c3nc4ccccc4[nH]3)cc2c1 | broth dilution | MIC |  | MTCC 227 |  | 250 µg/mL
COc1ccnc(C(=O)N[C@H]2COC(=O)[C@H](Cc3ccccc3)[C@@H](OC(=O)C(C)C)[C@H](C)OC2=O)c1O |  | MIC |  | IFO1061 |  | 0.39 µg/mL
COc1ccc(Oc2nc3ccc(C)cc3cc2C2C(C#N)=C(N)OC3=C2C(=O)CCC3)cc1 |  | MIC |  | MTCC 227 |  | 500 µg/mL
CCCCCOc1cccc2cccnc12 |  | MIC |  |  |  | 50 µg/mL

For reference, 10 entries again:

smiles	read by	endpoint	setting	strain	changes	result
CC(C)N1CCN(c2nc(Cl)nc(NC3CC3)n2)CC1	agar	MIC		MTCC 183		200 µg/mL
OC(CN1CCN(C(c2ccccc2)c2ccc(Cl)cc2)CC1)Cn1cncn1	broth dilution	MIC		ATCC 76615		100 µg/mL
CCOc1cccc2ccc[n+](CC)c12.[I-]		MIC				>100 µg/mL
O=[N+]([O-])c1cc(CSc2nnnn2Cc2ccccc2)cc([N+](=O)[O-])c1	broth dilution	EC80	48 h	ATCC 44859		>500 µM
COc1cccc(C[N+]2=C(c3ccc(F)cc3F)c3cc4c(cc3CC2)OCO4)c1OC.[Br-]	broth dilution	MIC80		Clinical isolate	Fluconazole-resistant	>64 µg/mL
N#C/C(=C/c1cc2ccccc2nc1N1CCOCC1)c1nc2ccccc2[nH]1	broth dilution	MIC		MTCC 227		1000 µg/mL
COc1ccc2nc(N3CCOCC3)c(CC(C#N)c3nc4ccccc4[nH]3)cc2c1	broth dilution	MIC		MTCC 227		250 µg/mL
C[C@H](Cc1ccc(O)c(O)c1)[C@@H](C)Cc1ccc(O)c(O)c1	broth dilution	MIC80		ATCC 10231		250 µg/mL
Brc1cc(Br)c2ncnc(NCCNc3nc(NC4CC4)nc(N4CCN(c5ccccc5)CC4)n3)c2c1	agar	MIC		MTCC 183		100 µg/mL
Cc1ccc2nc(Oc3ccc(F)cc3)c(C3C(C#N)=C(N)OC4=C3C(=O)CCC4)cc2c1		MIC		MTCC 227		250 µg/mL